A mixed list of measured activities; the numbers were collected in NIAID ChemDB.

All rows: tests in culture; species: HIV-1

Blank or dashed fields: not listed here.

{"structure": "Nc1nc(NC2CC2)c2ncn([C@H]3C=C[C@@H](CO)C3)c2n1", "strain or isolate": "SF162 R5", "cell line": "PBL (resting) + PBL", "read by": "RT activity", "measure": "inhibition", "dose": "4 µM", "result": "97%"}
{"structure": "O=C1N(Cc2ccc(CO)cc2)[C@H](Cc2ccccc2)[C@H](O)[C@@H](O)[C@@H](Cc2ccccc2)N1Cc1ccc(CO)cc1", "strain or isolate": "Clinical isolate C", "cell line": "PBMC", "read by": "p24", "measure": "inhibition", "dose": "0.18 µM", "result": "90%"}
{"structure": "CC[C@H](C)[C@H](C(=O)O)N1C[C@H](CN2CCC(c3cc(Cc4ccc(OC)c(C#N)c4)nn3CC)CC2)[C@@H](c2cccc(F)c2)C1", "strain or isolate": "BaL", "cell line": "HeLa", "read by": "β-galactosidase", "setting": "50% human serum", "measure": "EC90", "result": "0.033 µM"}
{"structure": "CCCN(C)C(=O)Oc1nsnc1-c1c(Cl)ccc(N)c1Cl", "strain or isolate": "IIIB", "changes": "RT-K103N", "cell line": "MAGI", "read by": "MTT", "measure": "fold resistance", "result": "2.37"}
{"structure": "CCOc1ccc(Cc2cc(C3CCN(C[C@H]4CN([C@@H](C(=O)O)C(C)(C)C)C[C@@H]4c4cccc(F)c4)CC3)n(CC)n2)cc1F", "strain or isolate": "BaL", "cell line": "HeLa", "read by": "β-galactosidase", "setting": "50% human serum", "measure": "EC90", "result": "0.011 µM"}
{"structure": "CCc1cc(CCN2C(=O)c3ccccc3C2=O)c(=O)[nH]c1C", "strain or isolate": "IIIB", "cell line": "H9", "read by": "p24", "measure": "EC95", "result": "40 µM"}
{"structure": "Cc1cn([C@H]2C[C@H](N=[N+]=[N-])[C@@H](CO)O2)c(=O)[nH]c1=O", "strain or isolate": "NL-XM WT", "cell line": "MT-4", "read by": "p24", "measure": "EC90", "result": "0.02 µM"}
{"structure": "O=c1[nH]cnc2c1ncn2[C@H]1CC[C@@H](CO)O1", "strain or isolate": "HXB2", "changes": "RT-Y181C", "cell line": "HT4 + HT4 LacZ-1", "read by": "plaque count", "measure": "EC50", "result": "1.3 µM"}
{"structure": "CC(C)(C)NC(=O)[C@@H]1C[C@@H]2CCCC[C@@H]2CN1C[C@@H](O)[C@H](Cc1ccccc1)NC(=O)[C@H](CC(N)=O)NC(=O)c1ccc2ccccc2n1", "cell line": "PBL", "measure": "EC99", "result": "0.06 µM"}
{"structure": "S=C(NCCc1cccs1)Nc1ccc(Br)cn1", "strain or isolate": "H112-2 Clinical isolate", "cell line": "PBMC", "read by": "p24", "measure": "EC50", "result": "0.009 µM"}
{"structure": "Nc1nc(=O)n([C@H]2CS[C@@H](CO)O2)cc1F", "strain or isolate": "HXB2", "changes": "RT-M184V", "cell line": "HT4 + HT4 LacZ-1", "read by": "plaque count", "measure": "EC50", "result": "300 µM"}
{"structure": "CC[C@@H](C)[C@H](C(=O)O)N1C[C@H](CN2CCC(c3cc(Cc4ccc(C(F)(F)F)cc4)nn3CC)CC2)[C@@H](c2cccc(F)c2)C1", "strain or isolate": "BaL", "cell line": "HeLa", "read by": "β-galactosidase", "measure": "EC90", "result": "0.0004 µM"}
{"structure": "Cc1cn([C@H]2C[C@H](N=[N+]=[N-])[C@@H](CO)O2)c(=O)[nH]c1=O", "strain or isolate": "LAV-Bru", "cell line": "U-937", "read by": "RT activity", "setting": "14 d", "measure": "inhibition", "dose": "5 µM", "result": "0%"}
{"structure": "CCc1cc(NCc2nc3c(Cl)ccc(Cl)c3o2)c(=O)[nH]c1C", "strain or isolate": "IIIB", "cell line": "PBL", "read by": "p24", "measure": "EC95", "result": "0.05 µM"}
{"structure": "CC(=O)N1CCC(C(=O)N(CCCN2CCC(Cc3ccc(C(N)=O)cc3)CC2)c2ccc(C)c(Cl)c2)CC1", "strain or isolate": "R5 subtype D_1 recombinant", "cell line": "U87 (CD4+ CCR5+) + U87", "read by": "luciferase", "measure": "EC50", "result": "0.0011 µM"}
{"structure": "Cc1cn([C@H]2C=C[C@@H](CO)O2)c(=O)[nH]c1=O", "strain or isolate": "RT-62V 69[SS] 70R 215Y", "changes": "RT A62V T69SS insertion K70R T215Y", "measure": "fold resistance", "result": "1"}
{"structure": "Nc1ncnc2c1ncn2[C@H]1CC[C@@H](CO)O1", "strain or isolate": "LAV-1", "cell line": "CEM", "read by": "virus yield", "measure": "inhibition", "dose": "0.1 µM", "result": "0%"}
{"structure": "O=C1Nc2ccc(Cl)cc2[C@@](C#CC2CC2)(C(F)(F)F)O1", "changes": "4xAZT", "cell line": "Primary T lymphocytes", "read by": "p24 / ELISA", "measure": "EC90", "result": "0.2 µM"}
{"structure": "C#C[C@]1(CO)O[C@@H](n2cnc3c(N)nc(F)nc32)C[C@@H]1O", "strain or isolate": "Clinical isolate", "changes": "A114S", "cell line": "MT4-GFP", "read by": "fluorescence", "measure": "EC50", "result": "0.0021 µM"}
{"structure": "C[C@H](Cn1cnc2c(N)ncnc21)OCP(=O)(O)O", "cell line": "MM + M/M", "measure": "EC99", "result": "0.7 µM"}
{"structure": "Nc1nc2c(ncn2[C@H]2CO[C@@H](CO)O2)c(=O)[nH]1", "strain or isolate": "RT M41L 67N 69D 184V 210W 215Y 219R/K", "changes": "RT-M41L D67N T69D M184V L210W T215Y K219R/K", "measure": "fold resistance", "result": "1.1"}
{"structure": "Cc1cn([C@H]2C=C[C@@H](CO)O2)c(=O)[nH]c1=O", "strain or isolate": "IIIB", "cell line": "ATH8", "read by": "cytopathic effect", "measure": "EC90", "result": "<0.25 µg/mL"}
{"structure": "O=C1N(Cc2ccc(CO)cc2)[C@H](Cc2ccccc2)[C@H](O)[C@@H](O)[C@@H](Cc2ccccc2)N1Cc1ccc(CO)cc1", "strain or isolate": "NL4-3", "changes": "PR-L10R L63P", "cell line": "MT-4", "read by": "p24", "measure": "EC95", "result": "0.2 µM"}
{"structure": "O=S(=O)(O)c1cc(N=C=S)ccc1/C=C/c1ccc(N=C=S)cc1S(=O)(=O)O", "strain or isolate": "GB8", "cell line": "JM", "read by": "p24", "measure": "inhibition", "dose": "25 µg/mL", "result": "93.6%"}
{"structure": "Nc1nc(=O)n([C@@H]2CS[C@H](CO)O2)cc1F", "changes": "K65R", "cell line": "Primary T lymphocytes", "read by": "p24 / ELISA", "measure": "EC90", "result": "2.4 µM"}
{"structure": "CC(C)=CCN1Cc2cc(Cl)cc3[nH]c(=S)n(c23)C[C@@H]1C", "changes": "RT-M41L T215Y L100I", "cell line": "MT-4", "measure": "EC95", "result": ">3 µM"}
{"structure": "C[C@]12CCC(=O)C=C1CC[C@@H]1[C@@H]2[C@@H](O)C[C@@]2(C)[C@H]1CC[C@]2(O)C(=O)COP(=O)(O)O", "strain or isolate": "BRU", "cell line": "PBMC", "read by": "RT activity", "measure": "EC30", "result": "~5 µg/mL"}
{"structure": "Cc1ccc(S(=O)(=O)N(CC(C)C)C[C@@H](O)[C@H](Cc2ccccc2)NC(=O)O[C@H]2CO[C@H]3OCC[C@H]32)cc1", "strain or isolate": "IIIB", "changes": "K112M K113E V128I M200I H219P I401T R409K D437N L441P R41K", "cell line": "MT-2", "read by": "p24 / ELISA", "measure": "fold resistance", "result": "7.3"}
{"structure": "CC(C)(C)NC(=O)[C@@H]1C[C@@H]2CCCC[C@@H]2CN1C[C@@H](O)[C@H](Cc1ccccc1)NC(=O)[C@H](CC(N)=O)NC(=O)c1ccc2ccccc2n1", "strain or isolate": "NL4-3", "changes": "PR-L63P V82T I84V", "cell line": "MT-4", "read by": "p24", "measure": "EC95", "result": "0.05 µM"}
{"structure": "N#CC[C@H](C1CCCC1)n1cc(-c2ncnc3[nH]ccc23)cn1", "changes": "K65R", "cell line": "Primary T lymphocytes", "read by": "p24 / ELISA", "measure": "EC90", "result": "8.5 µM"}
{"structure": "Cc1cn([C@H]2C[C@H](N=[N+]=[N-])[C@@H](COP(=O)(O)OC[C@H]3OC(O)[C@@H](O)[C@@H](O)[C@@H]3O)O2)c(=O)[nH]c1=O", "strain or isolate": "LAV-Bru", "cell line": "U-937", "read by": "RT activity", "setting": "7 d", "measure": "inhibition", "dose": "1 µM", "result": "0%"}
{"structure": "Nc1ccn([C@H]2CC[C@@H](CO)O2)c(=O)n1", "strain or isolate": "JF10(RT-L210W)", "changes": "RT-L210W", "cell line": "HELA-CD4+", "read by": "plaque count", "measure": "fold resistance", "result": "1.54"}
{"structure": "Cc1cc(S(N)(=O)=O)ccc1NC(=O)COc1ccc(Cl)cc1C(=O)c1cc(Cl)cc(C#N)c1", "strain or isolate": "NNRTI-resistant (RT Y181C)", "changes": "RT-Y181C", "cell line": "MAGI", "read by": "β-galactosidase", "measure": "fold resistance", "result": "1.35"}
{"structure": "Cc1cn([C@H]2C[C@H](N=[N+]=[N-])[C@@H](CO)O2)c(=O)[nH]c1=O", "strain or isolate": "IIIB", "cell line": "PBL (resting) + PBL", "read by": "RT activity", "measure": "inhibition", "dose": "0.03 µM", "result": "50%"}
{"structure": "CC[C@H](C)[C@H](C(=O)O)N1C[C@H](CN2CCC(c3cc(Cc4ccc(O)cc4)nn3CC)CC2)[C@@H](c2cccc(F)c2)C1", "strain or isolate": "BaL", "cell line": "HeLa", "read by": "β-galactosidase", "setting": "50% human serum", "measure": "EC90", "result": "0.011 µM"}
{"structure": "COc1ccc(CN[C@@H](C(=O)N[C@H]2c3ccccc3C[C@H]2O)[C@H](O)[C@H](Cc2ccccc2)NC(=O)[C@@H](NC(=O)OCc2ccccc2)C(C)(C)C)cc1", "strain or isolate": "IIIB", "cell line": "U-937", "read by": "p24", "measure": "inhibition", "dose": "0.21 µM", "result": "90%"}
{"structure": "CC[C@@H](C)[C@H](C(=O)O)N1C[C@H](CN2CCC(c3cc(Cc4cc(C(F)(F)F)cc(C(F)(F)F)c4)nn3CC)CC2)[C@@H](c2cccc(F)c2)C1", "strain or isolate": "BaL", "cell line": "HeLa", "read by": "β-galactosidase", "setting": "50% human serum", "measure": "EC90", "result": ">0.3 µM"}
{"structure": "CC(C)CN(C[C@@H](O)[C@H](Cc1ccccc1)NC(=O)O[C@H]1CCOC1)S(=O)(=O)c1ccc(N)cc1", "strain or isolate": "NL4-3", "changes": "PR-N88D", "cell line": "MT-4", "read by": "p24", "measure": "EC90", "result": "0.02 µM"}
{"structure": "CC[C@@H](C)[C@H](C(=O)O)N1C[C@H](CN2CCC(c3cc(Cc4cccc(CN)c4)nn3CC)CC2)[C@@H](c2cccc(F)c2)C1", "strain or isolate": "BaL", "cell line": "HeLa", "read by": "β-galactosidase", "setting": "50% human serum", "measure": "EC90", "result": "0.033 µM"}
{"structure": "O=c1[nH]cnc2c1ncn2[C@H]1CC[C@@H](CO)O1", "strain or isolate": "XM-AZT-resistant", "changes": "RT-M41L D67N K70R T215Y K219Q", "cell line": "MT-4", "read by": "p24", "measure": "EC90", "result": "11 µM"}
{"structure": "Cc1cn([C@H]2C[C@H](N=[N+]=[N-])[C@@H](COP(=O)(O)OC[C@H]3OC(O)[C@H](O)[C@@H](O)[C@@H]3O)O2)c(=O)[nH]c1=O", "strain or isolate": "LAV-Bru", "cell line": "CEM", "read by": "RT activity", "setting": "15 d", "measure": "inhibition", "dose": "5 µM", "result": "98%"}
{"structure": "Cc1cc(C)c(-n2nnnc2OCC(=O)Nc2ccccc2Cl)c(C)c1", "cell line": "MT-4", "read by": "p24", "measure": "EC95", "result": "<10 µM"}
{"structure": "O=c1[nH]cnc2c1ncn2[C@H]1CC[C@@H](CO)O1", "strain or isolate": "SF162 R5", "cell line": "PBL (resting) + PBL", "read by": "RT activity", "measure": "inhibition", "dose": "9 µM", "result": "100%"}
{"structure": "O=C(CSc1nnnn1-c1cccc(Cl)c1Cl)Nc1ccccc1[N+](=O)[O-]", "cell line": "MT-4", "read by": "p24", "measure": "EC95", "result": "<10 µM"}
{"structure": "O=C(O)P(=O)(O)O", "strain or isolate": "IIIB", "cell line": "PBL", "read by": "RT activity", "setting": "14 d", "measure": "inhibition", "dose": "32 µM", "result": "72%"}
{"structure": "Nc1nc(=O)n([C@@H]2CS[C@H](CO)O2)cc1F", "strain or isolate": "HXB2", "changes": "RT-M184V", "cell line": "HT4 + HT4 LacZ-1", "read by": "plaque count", "measure": "EC50", "result": ">500 µM"}
{"structure": "Cc1cc(C)c(-n2nnnc2SCC(=O)Nc2cc(F)ccc2F)c(C)c1", "cell line": "MT-4", "read by": "p24", "measure": "EC95", "result": "<10 µM"}

5 of the rows above, restated:

structure | strain or isolate | changes | cell line | read by | setting | measure | dose | result
Nc1ccn([C@H]2CC[C@@H](CO)O2)c(=O)n1 | JF10(RT-L210W) | RT-L210W | HELA-CD4+ | plaque count |  | fold resistance |  | 1.54
Cc1cn([C@H]2C=C[C@@H](CO)O2)c(=O)[nH]c1=O | IIIB |  | ATH8 | cytopathic effect |  | EC90 |  | <0.25 µg/mL
CC(C)(C)NC(=O)[C@@H]1C[C@@H]2CCCC[C@@H]2CN1C[C@@H](O)[C@H](Cc1ccccc1)NC(=O)[C@H](CC(N)=O)NC(=O)c1ccc2ccccc2n1 | NL4-3 | PR-L63P V82T I84V | MT-4 | p24 |  | EC95 |  | 0.05 µM
CC[C@@H](C)[C@H](C(=O)O)N1C[C@H](CN2CCC(c3cc(Cc4ccc(C(F)(F)F)cc4)nn3CC)CC2)[C@@H](c2cccc(F)c2)C1 | BaL |  | HeLa | β-galactosidase |  | EC90 |  | 0.0004 µM
Nc1nc2c(ncn2[C@H]2CO[C@@H](CO)O2)c(=O)[nH]1 | RT M41L 67N 69D 184V 210W 215Y 219R/K | RT-M41L D67N T69D M184V L210W T215Y K219R/K |  |  |  | fold resistance |  | 1.1

Fold resistance has wild type as its base. Percent inhibition refers to the dose given; in toxicity tests it is the harm to the cells. ECn: concentration that inhibits the pathogen or its effect by n%. Lines come from different laboratories, so protocols vary.